Results taken from publication PMC12384620, “Hit-to-Lead Studies of Pyrazinylpiperazines against Visceral Leishmaniasis: Pharmacokinetic Profile and In Vivo Efficacy of Potent Compounds against Leishmania infantum” (ACS Pharmacology & Translational Science, 2025).

Key:
L. braziliensis = test: Inhibition of growth of L. braziliensis in THP-1 macrophages; format: cell-based, Leishmania braziliensis; conditions: selectivity index, CC50 (THP-1) / IC50 (L. braziliensis)
Text: 1 In Vitro Antileishmanial Potency, Selectivity Index, and ADME Properties of Compounds 1 – 6 | column: L. braziliensis IC50 (μM)^b (SI)^b

L. infantum = test: Antileishmanial activity against L. infantum amastigotes in THP-1 macrophages; format: cell-based, Leishmania infantum; conditions: selectivity index, CC50 (THP-1) / IC50 (L. infantum)
Description: The in vitro anti-L. infantum activity (IC50) of each compound was evaluated on THP-1 cells (human leukemia monocytic cell line) infected with L. infantum promastigotes, and the in vitro cytotoxicity (CC50) was determined over the THP-1 cell line. The selectivity index (SI) was calculated as the ratio of the CC50 value determined in the cytotoxicity assay, divided by the IC50 value determined in the antileishmanial activity assay.
Cells derived from the human monocytic strain THP-1 were cultured in complete Rowell Park Memorial Institute (RPMI)-1640 medium (supplemented with 10% fetal bovine serum, 100 U/mL penicillin, and 100 μg/mL streptomycin). Monocytes were differentiated into macrophages by the addition of 20 ng/mL phorbol myristate acetate (PMA). After 72 h, the macrophages (5 × 10^4), in black 96-well microtiter plates (Corning Incorporated, Corning, NY), were infected with Leishmania (Leishmania) infantum (MHOM/BR/1974/PP75) promastigotes transfected with gene tdTomato, on the second day of the stationary phase (20 parasites per macrophage) for 4 h. […] The IC50 values were determined by nonlinear regression using a variable slope model (log(concentration) vs growth inhibition) with the GraphPadPrism v8.2.0 (CA, USA) software. Controls with uninfected cells, untreated infected cells, and infected cells treated with amphotericin B at 0.25 μM (positive control) or DMSO 1% were used. Quadruplicates were run on the same plate, and the experiments were repeated at least once.

| SMILES | SI (L. braziliensis) (L. braziliensis) | SI (L. infantum) (L. infantum) |
| --- | --- | --- |
| C[C@@H]1[C@H](O)[C@@H](C)/C=C/C=C/C=C/C=C/C=C/C=C/C=C/[C@H](O[C@@H]2O[C@H](C)[C@@H](O)[C@H](N)[C@@H]2O)C[C@@H]2O[C@](O)(C[C@@H](O)C[C@@H](O)[C@H](O)CC[C@@H](O)C[C@@H](O)CC(=O)O[C@H]1C)C[C@H](O)[C@H]2C(=O)O [AmB, Amphotericin B, reference compound] | 2798 | 1455 |
| O=C(c1ccc(O)c(Cl)c1)N1CCN(c2cnccn2)CC1 [Compound 1, (3-Chloro-4-hydroxyphenyl)(4-(pyrazin-2-yl)piperazin-1-yl)methanone] | 46 | 46 |
| O=C(c1ccc(O)cc1)N1CCN(c2cnccn2)CC1 [Compound 2, (4-Hydroxyphenyl)(4-(pyrazin-2-yl)piperazin-1-yl)methanone] | 141 | 346 |
| COc1ccc(C(=O)N2CCN(c3cnccn3)CC2)cc1 [Compound 3, (4-Methoxyphenyl)(4-(pyrazin-2-yl)piperazin-1-yl)methanone] | 188 | 422 |
| Nc1ccc(C(=O)N2CCN(c3cnccn3)CC2)cn1 [Compound 4, (6-Aminopyridin-3-yl)(4-(pyrazin-2-yl)piperazin-1-yl)methanone] | 224 | 524 |
| O=C(c1ccc2cc(O)ccc2c1)N1CCN(c2cnccn2)CC1 [Compound 5, (6-Hydroxynaphthalen-2-yl)(4-(pyrazin-2-yl)piperazin-1-yl)methanone] | 306 | 241 |
| O=C(c1cccc(O)c1O)N1CCN(c2cnccn2)CC1 [Compound 6, (2,3-Dihydroxyphenyl)(4-(pyrazin-2-yl)piperazin-1-yl)methanone] | > 16650 | > 1189 |
